A mixed list of measured activities; the numbers were collected in NIAID ChemDB.

All rows: cytotoxicity tests; read-out: CC50

Conditions beyond the fields shown may differ between rows.

{"structure": "CC(C)N(Cc1cccc(OCCCCCC(=O)OC(=O)O)c1)C(=O)c1ccc(-c2ccc3[nH]ccc3c2)cc1", "cells": "BJ", "value": ">20 µM"}
{"structure": "CC(C)c1ccc2c(c1)c(=O)cc(-c1ccco1)n2C", "read by": "MTT", "cells": "HELA-OHIO", "value": ">20 µg/mL"}
{"structure": "OC[C@H]1O[C@@H](n2ccc3c(-c4ccco4)nc(F)nc32)C(O)C1O", "read by": "MTT", "cells": "CCRF-CEM leukemia cells", "value": "2.22 µM"}
{"structure": "COC(=O)N[C@H](C(=O)N[C@H](CCC[C@@H](CO)N(C(C)C)S(=O)(=O)c1ccc(CO)cc1)C(F)(F)F)C(c1ccccc1)c1ccccc1", "read by": "microscopy", "cells": "T lymphoid cells", "value": ">10 µM"}
{"structure": "OC[C@H]1O[C@@H](n2ccc3c(-c4cccs4)nc(F)nc32)C(O)C1O", "read by": "MTT", "cells": "K562 leukemia cells", "value": "49.2 µM"}
{"structure": "C=C1CN(S(=O)(=O)c2ccc(C)cc2)CCCN(C(=O)OCCC)CCCN(S(=O)(=O)c2ccc(C)cc2)C1", "read by": "trypan blue / propidium iodide", "cells": "SupT1", "value": "40.4 µM"}
{"structure": "CCOC(=O)c1[nH]c2c(c1N)C1=C(CCC/C1=C\\c1ccncc1)C(c1ccncc1)S2", "read by": "MTT", "cells": "MGC-803", "value": ">50 µM"}
{"structure": "COC(=O)N[C@H](C(=O)N[C@H](CCC[C@@H](CO)N(CCC(C)C)S(=O)(=O)c1ccc2ncsc2c1)C1CC1)C(c1ccccc1)c1ccccc1", "read by": "microscopy", "cells": "T lymphoid cells", "value": ">10 µM"}
{"structure": "COc1ccc(-c2c(C)c(=O)c3c(C)c(OCC(C)C)ccc3n2C)cc1C", "read by": "MTT", "cells": "HeLa S3", "value": ">4 µg/mL"}
{"structure": "Cc1ccccc1-n1ncc2c(NCCc3ccc(S(N)(=O)=O)cc3)ncnc21", "cells": "HUH 9B", "value": ">50 µM"}
{"structure": "C=C1CN(S(=O)(=O)c2ccc(C)cc2)CCCN(C(=O)OCC)CCCN(S(=O)(=O)c2ccc(C)cc2)C1", "read by": "trypan blue / propidium iodide", "cells": "SupT1", "value": ">75 µM"}
{"structure": "CCOC(=O)C1=C(CN2CC(F)(F)[C@H]3[C@@H]2CCN3C[C@@](C)(F)C(=O)O)NC(c2nccs2)=N[C@H]1c1cccc(F)c1C", "read by": "WST / absorbance", "cells": "HepG2.2.15", "value": "25.3 µM"}
{"structure": "CCCN([C@H](CO)CCC[C@@H](NC(=O)[C@@H](NC(=O)OC)C(c1ccccc1)c1ccccc1)C(F)(F)F)S(=O)(=O)c1ccc(CO)cc1", "read by": "microscopy", "cells": "T lymphoid cells", "value": ">10 µM"}
{"structure": "COC(=O)C1=C(CN2CC(F)(F)[C@@H]3[C@H]2CON3C[C@@H](F)C(C)(C)C(=O)O)NC(c2nccs2)=N[C@H]1c1cccc(F)c1C", "read by": "WST / absorbance", "cells": "HepG2.2.15", "value": ">50 µM"}
{"structure": "O=C1Sc2nc3c(c(=S)n2C/C1=C/c1ccc(Cl)cc1)C1=C(CCC/C1=C\\c1ccncc1)C(c1ccncc1)S3", "read by": "MTT", "cells": "KB", "value": "16.5 µM"}
{"structure": "O=[N+]([O-])c1c(N2CC[N+]3(CC2)CC[N+]2(CCNCC2)CC3)ncnc1N1CC[N+]2(CC1)CC[N+]1(CCNCC1)CC2", "cells": "K562", "value": ">232.4 µg/mL"}
{"structure": "OC[C@H]1O[C@@H](n2ccc3c(-c4cc5ccccc5o4)nc(F)nc32)C(O)C1O", "read by": "MTT", "cells": "BJ fibroblasts", "value": ">150 µM"}
{"structure": "C(=C\\c1ccc2ccccc2n1)/c1ccc2ccccc2n1", "read by": "MTT", "cells": "CEM-4fx", "value": ">300 µM"}
{"structure": "NC(=S)Nc1ccc2c(c1)Cc1cc(NC(N)=S)ccc1-2", "read by": "MTS", "cells": "Ava5-EG(delta4AB)SEAP", "value": ">1 µM"}
{"structure": "CC[C@H](C)[C@H]1OC(=O)[C@H](C(C)C)N(C)C(=O)[C@@H]([C@@H](C)CC)OC(=O)[C@H](C(C)C)N(C)C(=O)[C@@H]([C@@H](C)CC)OC(=O)[C@H](C(C)C)NC1=O", "read by": "absorbance", "cells": "BC-cells", "value": "1 µM"}
{"structure": "CCOC(=O)C1=C(CN2CC(F)(F)[C@@H]3[C@H]2CON3C[C@H](OC(F)F)C(C)(C)C(=O)O)NC(c2nccs2)=N[C@H]1c1cccc(F)c1C", "read by": "WST / absorbance", "cells": "HepG2.2.15", "value": "11.9 µM"}
{"structure": "O=c1sc2nc3c(c(=S)n2/c1=C/c1ccccc1)C1=C(CCC/C1=C\\c1ccncc1)C(c1ccncc1)S3", "read by": "MTT", "cells": "MCF-7", "value": "38.7 µM"}
{"structure": "C=Cc1ccc2ccccc2n1", "read by": "MTT", "cells": "CEM-4fx", "value": "9.4 µM"}
{"structure": "COC(=O)C1=C(CN2CC(F)(F)[C@H]3[C@@H]2CCN3CC[C@@](C)(O)C(=O)O)NC(c2nccs2)=N[C@H]1c1ccc(F)c(F)c1F", "read by": "WST / absorbance", "cells": "HepG2.2.15", "value": ">100 µM"}
{"structure": "Cc1ccc(-n2ncc3c(Nc4cccc(-c5cnco5)c4)ncnc32)c(C)c1", "cells": "HUH 9B", "value": "18 µM"}
{"structure": "CCn1c(-c2ccccc2)c(C)c(=O)c2ccc(C(C)C)cc21", "read by": "MTT", "cells": "HELA-OHIO", "value": ">10 µg/mL"}
{"structure": "COC(=O)N[C@H](C(=O)NC1(CCCC(CO)N(CCC(C)C)S(=O)(=O)c2ccc(N)cc2)CCC1)C(c1ccccc1)c1ccccc1", "read by": "microscopy", "cells": "T lymphoid cells", "value": ">10 µM"}
{"structure": "Cc1cc2c(O[C@H]3O[C@H](CO)[C@@H](O)[C@H]3O)ccc(O)c2c(=O)o1", "read by": "MTT", "cells": "MCF-7", "value": ">40 µg/mL"}
{"structure": "NC(=S)Nc1cccc(OCCCCCOc2ccccc2-c2cc(F)cc(F)c2)c1", "read by": "MTS", "cells": "Ava5-EG(delta4AB)SEAP", "value": ">1 µM"}
{"structure": "Nc1c(C(=O)c2ccccc2)[nH]c2c1C1=C(CCC/C1=C\\c1ccncc1)C(c1ccncc1)S2", "read by": "MTT", "cells": "MGC-803", "value": ">50 µM"}
{"structure": "NC(=S)Nc1cccc(OCCCCCOc2ccc(-c3cccs3)cc2)c1", "read by": "MTS", "cells": "Ava5-EG(delta4AB)SEAP", "value": ">1 µM"}
{"structure": "CCOC(=O)C1=C(CN2CC(F)(F)[C@@H]3[C@H]2CON3C[C@@H](F)C(C)(C)C(=O)O)NC(c2nccs2)=N[C@H]1c1ccc(F)c(F)c1C", "read by": "WST / absorbance", "cells": "HepG2.2.15", "value": "50 µM"}
{"structure": "COc1cc(OC)cc(-c2ccc(C(=O)N(Cc3cccc(OCCCCCC(=O)OC(=O)O)c3)C(C)C)cc2)c1", "cells": "HEK 293", "value": ">20 µM"}
{"structure": "Cc1ccc(-n2ncc3c(Nc4ccc(C(N)=O)cc4)ncnc32)c(C)c1", "cells": "HUH 9B", "value": ">50 µM"}
{"structure": "O=C(CCBr)N1CC[N+]2(CC1)CC[N+]1(CCN(C(=O)CCBr)CC1)CC2", "cells": "L929", "value": ">353.2 µg/mL"}
{"structure": "C=C1CN(S(=O)(=O)c2ccc(C)cc2)CCCN(CC(C)CC)CCCN(S(=O)(=O)c2ccc(C)cc2)C1", "read by": "trypan blue / propidium iodide", "cells": "SupT1", "value": "13.1 µM"}
{"structure": "CC(C)N(Cc1cccc(OCCCCCC(=O)OC(=O)O)c1)C(=O)c1ccc(-c2cccc(F)c2)cc1", "cells": "BJ", "value": ">20 µM"}
{"structure": "Cc1nc2c(c(=N)n1Nc1ccccc1)C1=C(CCC/C1=C\\c1ccncc1)C(c1ccncc1)S2", "read by": "MTT", "cells": "CNE-2", "value": "12.6 µM"}
{"structure": "CCn1c2c(c(=O)c3cc(C(C)C)ccc31)Cc1ccccc1-2", "read by": "MTT", "cells": "HELA-OHIO", "value": ">4 µg/mL"}
{"structure": "CCOC(=O)C1=C(CN2CC(F)(F)[C@@H]3[C@H]2CON3C[C@H](O)C(C)(C)C(=O)O)NC(c2nccs2)=N[C@H]1c1cccc(F)c1C", "read by": "WST / absorbance", "cells": "HepG2.2.15", "value": "100 µM"}
{"structure": "CCCN([C@H](CO)CCCC(C)NC(=O)[C@@H](NC(=O)OC)C(c1ccccc1)c1ccccc1)S(=O)(=O)c1ccc(CO)cc1", "read by": "microscopy", "cells": "T lymphoid cells", "value": ">10 µM"}
{"structure": "CCCOc1ccc2c(c1)c(=O)c(C)c(-c1ccccc1)n2CC", "read by": "MTT", "cells": "HELA-OHIO", "value": ">10 µg/mL"}
{"structure": "CC(C)N(Cc1cccc(OCCCCCC(=O)OC(=O)O)c1)C(=O)c1ccc(-c2ccsc2)cc1", "cells": "BJ", "value": ">20 µM"}
{"structure": "CCC/C=C/c1ccc2ccccc2n1", "read by": "MTT", "cells": "CEM-4fx", "value": "8.5 µM"}
{"structure": "NC(=S)Nc1ccc2c(c1)Cc1cc(N(CCCc3ccccc3)CCCc3ccccc3)ccc1-2", "read by": "MTS", "cells": "Ava5-EG(delta4AB)SEAP", "value": ">1 µM"}
{"structure": "NN1CC[N+]2(CC1)CC[N+]1(CCN(N)CC1)CC2", "cells": "GMK", "value": "207.1 µg/mL"}
{"structure": "C#C[C@@H](CCC[C@@H](CO)N(CCC(C)C)S(=O)(=O)c1ccc(CO)cc1)NC(=O)[C@@H](NC(=O)OC)C(c1ccccc1)c1ccccc1", "read by": "microscopy", "cells": "T lymphoid cells", "value": ">10 µM"}
{"structure": "CC(C)COc1cccc(-c2ccc(C(=O)N(Cc3cccc(OCCCCCC(=O)OC(=O)O)c3)C(C)C)cc2)c1", "cells": "HepG2", "value": ">20 µM"}
{"structure": "Cc1ccc(/C=C2/Cn3c(nc4c(c3=S)C3=C(CCC/C3=C\\c3ccncc3)C(c3ccncc3)S4)SC2=O)cc1", "read by": "MTT", "cells": "MGC-803", "value": "22.5 µM"}
{"structure": "CCCN([C@H](CO)CCC[C@H](CC)NC(=O)[C@H](Cc1ccccc1Br)NC(=O)OC)S(=O)(=O)c1ccc(N)cc1", "read by": "microscopy", "cells": "T lymphoid cells", "value": ">10 µM"}
{"structure": "Cc1nc(N2CC[N+]3(CC2)CC[N+]2(CCN(c4nc(C)[nH]c(=O)c4[N+](=O)[O-])CC2)CC3)c([N+](=O)[O-])c(=O)[nH]1", "cells": "L929", "value": ">331.4 µg/mL"}
{"structure": "Nc1c2c(nc(=S)n1-c1ccccc1)SC(c1ccncc1)C1=C2/C(=C/c2ccncc2)CCC1", "read by": "MTT", "cells": "MCF-7", "value": "14.6 µM"}
{"structure": "O=C(c1c[nH]c2ccccc12)[C@H](O)CO", "read by": "MTT", "cells": "A-594", "value": ">40 µg/mL"}
{"structure": "S=C(Nc1ccccc1)Nc1ccc2c(c1)Cc1cc(Br)ccc1-2", "read by": "MTS", "cells": "Ava5-EG(delta4AB)SEAP", "value": ">1 µM"}
{"structure": "CCOC(=O)CCCCCOc1cccc(CN(C(=O)c2ccc(-c3ccc(Cl)c(Cl)c3)cc2)C(C)C)c1", "cells": "RAJI", "value": ">20 µM"}
{"structure": "CCCCCCCCCCCCCCc1ccc2ccccc2n1", "read by": "MTT", "cells": "CEM-4fx", "value": "110 µM"}
{"structure": "Cc1nc(N)nc2c1ccn2[C@@H]1O[C@H](CO)C(O)C1O", "read by": "MTT", "cells": "MRC-5 fibroblast", "value": "130.2 µM"}
{"structure": "NC(=S)Nc1cccc(OCCCCOc2ccccc2)c1", "read by": "MTS", "cells": "Ava5-EG(delta4AB)SEAP", "value": ">1 µM"}
{"structure": "CCOC(=O)C1=C(CN2CC(F)(F)[C@@H]3[C@H]2CON3C[C@H](O)C(C)(C)C(=O)O)NC(c2nccs2)=N[C@H]1c1ccc(F)cc1Cl", "read by": "WST / absorbance", "cells": "HepG2.2.15", "value": "100 µM"}
{"structure": "CCOC1N=C2C3=C(N=C(C)N2N1c1ccccc1)SC(c1ccncc1)C1=C3/C(=C/c2ccncc2)CCC1", "read by": "MTT", "cells": "CNE-2", "value": "13.5 µM"}
{"structure": "NC(=S)Nc1cccc(OCCCCCOc2ccncn2)c1", "read by": "MTS", "cells": "Ava5-EG(delta4AB)SEAP", "value": ">1 µM"}
{"structure": "COC(=O)C1=C(CN2CC(F)(F)[C@H]3[C@@H]2CCN3CC[C@@](C)(O)C(=O)O)NC(c2nccs2)=N[C@H]1c1ccc(F)c(F)c1Cl", "read by": "WST / absorbance", "cells": "HepG2.2.15", "value": ">50 µM"}
{"structure": "CCCCc1ccc(Nc2ncnc3c2cnn3-c2ccccc2Br)cc1", "cells": "HUH 9B", "value": ">50 µM"}
{"structure": "CCCCCCCCCCCC/C=C/c1ccc2ccccc2n1", "read by": "MTT", "cells": "CEM-4fx", "value": ">100 µM"}
{"structure": "C=CCCN(Cc1cc(OC)cc(OC)c1)C(=O)CC(C)=O", "cells": "HEK 293", "value": "<7.5 µM"}
{"structure": "CCOC(=O)C1=C(CN2CC(F)(F)[C@@H]3[C@H]2CON3CC[C@@](C)(O)C(=O)O)NC(c2nccs2)=N[C@H]1c1ccc(F)c(F)c1C", "read by": "WST / absorbance", "cells": "HepG2.2.15", "value": ">100 µM"}

7 of the rows above, restated:

structure | read by | cells | value
Cc1ccc(/C=C2/Cn3c(nc4c(c3=S)C3=C(CCC/C3=C\c3ccncc3)C(c3ccncc3)S4)SC2=O)cc1 | MTT | MGC-803 | 22.5 µM
O=c1sc2nc3c(c(=S)n2/c1=C/c1ccccc1)C1=C(CCC/C1=C\c1ccncc1)C(c1ccncc1)S3 | MTT | MCF-7 | 38.7 µM
O=C1Sc2nc3c(c(=S)n2C/C1=C/c1ccc(Cl)cc1)C1=C(CCC/C1=C\c1ccncc1)C(c1ccncc1)S3 | MTT | KB | 16.5 µM
CCOC(=O)CCCCCOc1cccc(CN(C(=O)c2ccc(-c3ccc(Cl)c(Cl)c3)cc2)C(C)C)c1 | - | RAJI | >20 µM
Cc1nc(N2CC[N+]3(CC2)CC[N+]2(CCN(c4nc(C)[nH]c(=O)c4[N+](=O)[O-])CC2)CC3)c([N+](=O)[O-])c(=O)[nH]1 | - | L929 | >331.4 µg/mL
Cc1nc(N)nc2c1ccn2[C@@H]1O[C@H](CO)C(O)C1O | MTT | MRC-5 fibroblast | 130.2 µM
COC(=O)C1=C(CN2CC(F)(F)[C@@H]3[C@H]2CON3C[C@@H](F)C(C)(C)C(=O)O)NC(c2nccs2)=N[C@H]1c1cccc(F)c1C | WST / absorbance | HepG2.2.15 | >50 µM

An empty or dashed field is not shown. CCn is the concentration with n% toxicity to the cells.